Source: the supplement of paper PMC9931576
Human monoclonal antibodies against the spike receptor-binding domain (heavy:light variable regions). IC50 against pseudoviruses bearing the spike of naturally observed variants; lower = stronger; >10 µg/ml means not reached at the top dose. No active / inactive call. The stated detection limit is 0.0005 µg/ml; values near or below 0.001 µg/ml lie at the floor of the assay.

Assays:
Test in all cases: pseudovirus neutralization IC50; higher = weaker neutralization
[1] = target: SARS-CoV-2 Omicron BA.1 spike pseudovirus
Description: (§1)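 Single-round VSV luciferase pseudovirus mixed with antibody dilutions for 1 h and put on Huh-7 cells for about a day; IC50 from the dose curve.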

[2] = target: SARS-CoV-2 Omicron BA.2 spike pseudovirus
Description: as §1

[3] = target: SARS-CoV-2 Omicron BA.2.75 spike pseudovirus
Description: as §1

[4] = target: SARS-CoV-2 Omicron BA.5 spike pseudovirus
Description: as §1

[5] = target: SARS-CoV-2 Omicron BQ.1.1 spike pseudovirus
Description: as §1

[6] = target: SARS-CoV-2 Omicron XBB spike pseudovirus
Description: as §1

[7] = target: SARS-CoV-2 early D614G spike pseudovirus
Description: as §1

[8] = target: SARS-CoV-2 Omicron BA.2.75.2 spike pseudovirus
Description: as §1

[9] = target: SARS-CoV-2 Omicron BM.1.1.1 spike pseudovirus
Description: as §1

[10] = target: SARS-CoV-2 Omicron BR.2 spike pseudovirus
Description: as §1

[11] = target: SARS-CoV-2 Omicron CA.1 spike pseudovirus
Description: as §1

Row | Binder | pseudovirus neutralization IC50 [1] [µg/mL] | pseudovirus neutralization IC50 [2] [µg/mL] | pseudovirus neutralization IC50 [3] [µg/mL] | pseudovirus neutralization IC50 [4] [µg/mL] | pseudovirus neutralization IC50 [5] [µg/mL] | pseudovirus neutralization IC50 [6] [µg/mL] | pseudovirus neutralization IC50 [7] [µg/mL] | pseudovirus neutralization IC50 [8] [µg/mL] | pseudovirus neutralization IC50 [9] [µg/mL] | pseudovirus neutralization IC50 [10] [µg/mL] | pseudovirus neutralization IC50 [11] [µg/mL]
1 | BD56-333 (protein) chain 1: QVQLVQSGAEVKKPGASVKVSCKASGYTFTNYYMHWVRQAPGQGLEWMGIINPSGGSTSSAQKFQGRVTMTRDTSTSTVYMELSSLRSEDTAVYYCARDIVLIPAGSAMDVWGQGTTVTVSS chain 2: QSALTQPASVSGSPGQSITISCTGTSSDVGRYNYVSWYQQHPGKAPQLMIYDVSERPSGVSNRFSGSKSGNTASLTISGLQAEDEADYYCSAKRSSSSFVFGGGTKLTVL | > 10 | > 10 | > 10 | > 10 | > 10 | > 10 | > 10 |  |  |  | 
2 | BD56-412 (protein) chain 1: EVQLVESGGGLVQPGGSLRLSCAASGITVSSNYMSWVRQAPGKGLEWVSLLYSGGSTYYADSVKGRFIVSRDNSKNTLYLQLNSLRAEDTAVYFCARDLQEAGAMDVWGQGTTVIVSS chain 2: DIQMTQSPSTLSASVGDRVTITCRASQSISRWLAWYQQKPGKAPKLLIFQASTLKSGVPSRFSGSGSGTEFTLTISSLQPFDVATYYCQHYNGYSQTFGQGTKVELK | 0.215 | 0.288 | 3.26 | 3.2 | > 10 | > 10 | 0.00517 |  |  |  | 
3 | BD56-413 (protein) chain 1: EVQLVESGGGLVQPGGSLRLSCAASGVTVSRNYMSWVRQAPGKGLEWVSVVYPGGTTDYADSVKGRFTISRHNSKNTLYLQMNSLRADDTAVYYCARDLGPSGTDVWGQGTTVTVSS chain 2: IQLTQSPSSLSASVGDRVTITCRASQGISSDLAWYQQRPGKAPNLLIYAASTLQSGVPSRFSGSGSGTDFTLTISSLQPEDFATYYCQQLNSYPPPFGGGTKVEIK | 0.4 | 0.396 | > 10 | > 10 | > 10 | > 10 | 0.00878 |  |  |  | 
4 | BD56-416 (protein) chain 1: QVQLVQSGAEVKKPGSSVKVSCKASGGTFSNYAINWVRQAPGQGLEWMGRIIPILTTANYAQKFQGRVTIIADKSTSTAYMELSSLRSEDTAVYYCARGGMVGAEYYFDYWGQGTLVTVSS chain 2: DIVMAQSPDSLAVSLGERATINCKSSQSVLYSSNNKNYLAWYQQKPGQPPKLLIYWASTRESGVPDRFSGSGSGTDFTLTISSLQAEDVAVYYCQQYYSTHSRTFGQGTKVEIK | 1.3 | 0.918 | 0.0109 | > 10 | > 10 | > 10 | 0.0103 |  |  |  | 
5 | BD56-418 (protein) chain 1: QMQLVQSGPEVKKSGTSVKVSCKASGFTFTSSAVQWVRQARGQGLEWIGWIVVGSGNTNYAQKFQERVTISRDMSTSTAYMELSSLRSEDTAVYYCAAPYCSGGSCYDGFDIWGQGTMVTVSS chain 2: EIVLTQSPGTLSLSPGERATLSCRATQIFRSSYFAWYQQKPGQAPRLLIYGASSRATGIPDRFSGSGSGTDFTLTISRLEPEDFAVYYCQQYDTSPWTFGQGTKVEI | 0.0837 | 0.0876 | 0.00424 | > 10 | > 10 | > 10 | 0.001 |  |  |  | 
6 | BD56-423 (protein) chain 1: EVQLVESGGGLVQPGGSLRLSCAASGIIVSSNYMNWVRQAPGKGLEWVSVVYSGGSTFYADSVKGRFTISRHNSQNTLYLQLNSLRTEDTAVYYCARDLMEAGGMDVWGQGTTVIVSS chain 2: EIVLTQSPGTLSLSPGERATLSCRASQSVSSSYLAWYQQKPGQPPRLLIYGASSRATGIPDRFSGSGSGTDFTLIITRLEPEDFAVYYCQQYGSSPPGITFGQGTRLEIK | 0.146 | 0.0999 | 1.01 | 1.51 | > 10 | > 10 | 0.0118 |  |  |  | 
7 | DH1210 (protein) chain 1: EVQLVQSGAEVKKPGATVKISCKVSGYTFTDSYIHWVQQAPGKGLEWMGLLDPEDGETINAAKFQGRVTITADTSTDTAYMELRSLRSEDTAVYYCGSGSEAHYGIDYWGQGTLVTVSS chain 2: QSVLTQPPSVSGTPGQRVTISCSGSSSNIGGNFVYWYQQFPGTAPKLLIYLNNRRPSGVPDRFSGSNSGTSASLAISGLRSEDEAEYYCAAWDDSLSGQKVFGTGTKVTVL | > 10 | > 10 | > 10 | > 10 | > 10 | > 10 | 0.128 |  |  |  | 
8 | BD56-424 (protein) chain 1: QVKLVQSGPEVKKPGTSVKVSCEASGFTFSSVTAIQWVRQPRGQGLEWIGWIVVGTGNANYEPKFQERVTITRDMSASTVYMELSSLRSEDTAVYYCAAPSCTSTTCLDGFDIWGQGTMVTVSS chain 2: EIVLTQSPGTLSLSPGERATLSCRVSQSVSRGYLAWYQQKPGQAPRLLIYGASSRATGIPDRFSGRGSGTDFTLTINRLEPEDFAVYYCQQYGSSPWTFGQGTKVEIK | 0.00412 | 0.00403 | 0.00154 | 3.9 | 3.91 | > 10 | 0.00106 |  |  |  | 
9 | BD56-432 (protein) chain 1: QVQLVESGGGVVQPGRSLRLSCAASGFTFIGYGMHWVRQAPGKGLEWVAIISYDGGKEYYADSVKGRFTISRDNSKNTLHLQMNSLRDEDTAVYYCGKDGASKSGWLGELIPSGRLDSWGQGTLVTVSS chain 2: ETVMTQSPATLSVSPGERATLSCRASQSISTNLAWYQQKPGQAPRLLIYGASTRATGIPARFSGSGSGTEFTLTISSLQSDDFAVYYCQEYNNWRRVTFGPGTKVNIK | 0.183 | 0.141 | 0.225 | > 10 | > 10 | > 10 | 0.00198 |  |  |  | 
10 | BD58-0400 (protein) chain 1: EVQLVESGGGLVQPRGSLRLSCAASGFTFSSYEMNWVRQAPGKGLEWVSYISSSGNTIYYADSVKGRFTISRDNAKNSLYLQMNSLRAEDTAVYYCASHQGYYYYMDVWGKGTTVTVSS chain 2: EIVMTQSPDTLSVSPGERATLSCRASQSVSSKLAWYQQKPGQAPRLLIYGASTRATGVPARFSGSGSGTEFTLSISSLQSEDFAVYYCQQYNNWPPITFGQGTRLEIK | 0.891 | 0.0488 | > 10 | > 10 | > 10 | > 10 | > 10 | > 10 | > 10 | > 10 | > 10
11 | BD58-0405 (protein) chain 1: EVQLVESGGGVVQPGGSLRLSCAASGFTFDAYVMHWVRQAPGKGLEWVSLISGDGGSTYSADSVKGRFTISRDNSKNSLYLQMNSLRTEDTALYYCLFGDYGNWLDPWGQGTLVTVSS chain 2: SYVLTQPPSVSVAPGQTARITCGGNNIGSKSVHWYQQKPGQAPVLVVYDDSDRPSGIPERFSGSNSGNTATLTISRVEAGDEADYSCQVWDSSSDHPVFGGGTKLTVL | > 10 | 0.033 | > 10 | 0.00682 | > 10 | > 10 | > 10 | > 10 | > 10 | > 10 | > 10
12 | BD58-0416 (protein) chain 1: EVQLVESGGGLVQPGGSLRLSCAASGFTFSSYEMNWVRQAPGKGLEWVSYISSSGSTIYYADSVKGRFTISRDNAKNSLYLQMNSLRAEDTAVYYCAISLGVPGAMPSYYYFGMDVWGQGTTVTVSS chain 2: QSVLTQPPSASGTPGQRVTISCSGSSSNIGSNYIYWYQQLPGTAPKLLIYSNNQRPSGVPDRFSGSKSGTSASLAISGLRSEDEADYYCATWDDSLSGWVFGGGTKLTVL | 0.738 | 0.0068 | > 10 | > 10 | > 10 | > 10 | > 10 | > 10 | > 10 | > 10 | > 10
